Compound potency records, mixed from different reports. Data source: NIAID ChemDB in PubChem.

All rows: growth or infection tests; agent: HIV-2; method: cytopathic effect / MTT; measure: EC50

ECn: concentration that inhibits the pathogen or its effect by n%. Rows are shuffled and stem from different studies. An empty or dashed field is not shown.

smiles | cell line | strain or isolate | result
COc1c(Cl)cc(C(=CCCNC(=O)C[C@H]2CC[C@]3(C)C4CC[C@@]5(C)C(CC[C@@H]5CC(=O)NCCC=C(c5cc(Cl)c(OC)c(C(=O)O)c5)c5cc(Cl)c(OC)c(C(=O)O)c5)C4CC[C@H]3C2)c2cc(Cl)c(OC)c(C(=O)O)c2)cc1C(=O)O | CEM + CEM-SS | ROD | 52 µM
O=C(Nc1sccc1S(=O)(=O)c1ccccc1)C(F)(F)F | CEM + CEM/O | ROD | >8 µg/mL
Cc1[nH]c(=S)n(Nc2cccc(F)c2)c1-c1ccccc1 | MT-4 | ROD | >108 µM
O=C(Nc1sccc1S(=O)(=O)c1ccccc1)c1ccccc1 | CEM + CEM/O | ROD | >40 µg/mL
C[C@H](C[n+]1c[nH]c2c(N)nc(N)nc21)OCP(=O)(O)O | MT-4 | ROD | 0.236 ± 0.03 µg/mL
COC(=O)c1ccccc1S(=O)(=O)c1cc(Br)sc1NC=O | CEM + CEM/O | ROD | >8 µg/mL
Cc1cccc(Nn2c(C)c(C)[nH]c2=S)c1 | MT-4 | ROD | >360 µM
Nc1nc(NC2CCCCC2)c2ncn(CCOCP(=O)(O)O)c2n1 | MT-4 | ROD | 4.8 µg/mL
O=C(Nc1sc(I)cc1S(=O)(=O)c1ccc(Cl)cc1)C(F)(F)F | CEM + CEM/O | ROD | >8 µg/mL
COc1c(Cl)cc(C(=CCCCCN[C@@H]2CC[C@]3(C)C4CC[C@@]5(C)C(CC[C@@H]5C(C)CCCC(C)C)C4CC[C@H]3C2)c2cc(Cl)c(OC)c(C(=O)O)c2)cc1C(=O)O | CEM + CEM-SS | ROD | >150 µM
COC(=O)c1ccccc1S(=O)(=O)c1ccsc1NC(=O)C(F)(F)F | CEM + CEM/O | ROD | >20 µg/mL
COc1c(Cl)cc(C(=CCCCCN(C(=O)C=C(c2cc(Cl)c(OC)c(C(=O)O)c2)c2cc(Cl)c(OC)c(C(=O)O)c2)[C@H]2CC[C@]3(C)C4CC[C@@]5(C)C(CC[C@@H]5C(C)CCCC(C)C)C4CC[C@H]3C2)c2cc(Cl)c(OC)c(C(=O)O)c2)cc1C(=O)O | CEM + CEM-SS | ROD | 8.2 µM
NC1=NS(=O)(=O)N(COCCO)C=C1 | MT-4 |  | >400 µg/mL
COC(=O)c1[nH]c(=S)n(Nc2cccc(Cl)c2)c1C | MT-4 | ROD | >48.8 µM
O=C(Nc1sc(Br)cc1S(=O)(=O)c1ccc(Cl)cc1)C(F)(F)F | CEM + CEM/O | ROD | >8 µg/mL
C[C@H](CC1CNC2C1CC(N)CN2N)OCP(=O)(O)O | MT-4 | ROD | >100 µg/mL
C[C@]12CCC3C(CC[C@H]4C[C@@H](CC=C(c5cc(Cl)c(O)c(C(=O)O)c5)c5cc(Cl)c(O)c(C(=O)O)c5)CC[C@]34C)C1CC[C@@H]2CC=C(c1cc(Cl)c(O)c(C(=O)O)c1)c1cc(Cl)c(O)c(C(=O)O)c1 | MT-4 | ROD | 60 µM
Nc1nc(N2CCCCC2)c2ncn(CCOCP(=O)(O)O)c2n1 | MT-4 | ROD | 3 µg/mL
CC(=O)OCCOCN1C=CC(N)=NS1(=O)=O | MT-4 |  | >400 µg/mL
Cc1ncn(Nc2ccccc2)c1C | MT-4 | ROD | >351 µM
C#CCOCN1C(=O)C=C(C)N(COCC#C)S1(=O)=O | MT-4 |  | >400 µg/mL
CCc1[nH]c(=S)n(Nc2cccc(Cl)c2)c1-c1ccccc1 | MT-4 | ROD | >38.96 µM
C#CCOCN1C=C(C#N)C(N)=NS1(=O)=O | MT-4 |  | >400 µg/mL
CC(=O)c1ccc(N2CCN(c3cc4c(cc3N)c(=O)c(C(=O)O)cn4C)CC2)cc1 | MT-4 | ROD | >0.157 µg/mL
O=C1C=CN(COCc2ccccc2)S(=O)(=O)N1COCc1ccccc1 | MT-4 |  | >400 µg/mL
Cc1cccc(Nn2c(-c3ccccc3)c(C(C)C)[nH]c2=S)c1 | MT-4 | ROD | >42.63 µM
O=C(Nc1sccc1S(=O)(=O)c1ccc(F)cc1)C(F)(F)F | CEM + CEM/O | ROD | >1.6 µg/mL
CCN(C)c1ncnc2c1ncn2C[C@@H](C)OCP(=O)(O)O | CEM | ROD | 4 µg/mL
CCc1ncn(Nc2cccc(C)c2)c1-c1ccccc1 | MT-4 | ROD | >27.87 µM
O=S(=O)(O)O.O=S(=O)(O)O.O=S(=O)(O)O.O=S(=O)(O)O.O=S(=O)(O)O.O=S(=O)(O)O.OC[C@H]1O[C@@H]2O[C@H]3[C@H](O)[C@@H](O)[C@@H](O[C@H]4[C@H](O)[C@@H](O)[C@@H](O[C@H]5[C@H](O)[C@@H](O)[C@@H](O[C@H]6[C@H](O)[C@@H](O)[C@@H](O[C@H]7[C@H](O)[C@@H](O)[C@@H](O[C@H]1[C@H](O)[C@H]2O)O[C@@H]7CO)O[C@@H]6CO)O[C@@H]5CO)O[C@@H]4CO)O[C@@H]3CO | MT-4 | ROD | 1.9 µg/mL

A second listing of 2 rows from above:

smiles,cell line,strain or isolate,result
O=C(Nc1sccc1S(=O)(=O)c1ccc(F)cc1)C(F)(F)F,CEM + CEM/O,ROD,>1.6 µg/mL
O=C1C=CN(COCc2ccccc2)S(=O)(=O)N1COCc1ccccc1,MT-4,,>400 µg/mL